Anti-infective test results gathered from many reports (values: NIAID ChemDB through PubChem).

All rows: growth or infection tests; agent: HIV-1; measure: fold resistance

Blank or dashed fields: not listed here. Rows are shuffled and stem from different studies. Fold resistance has wild type as its base.

structure,cells,strain,read by,mutations,value
CCC(=O)c1ccc(F)c([C@@H]2C[C@@H]2NC(=O)Nc2ccc(C#N)cn2)c1O,TZM-bl,LAI,β-galactosidase / luminescence,NNRTI-resistant (RT K101E),4.8
Cc1occc1C(=S)Nc1ccc(Cl)c(/C=N/OC(C)(C)C)c1,CEM + CEM-SS,NL4-3,cytopathic effect / XTT,RT-Y181C,6.25
CC(C)=CCOc1cc(NC(=S)c2ccoc2C)ccc1Cl,CEM + CEM-SS,UC10-resistant (RT Y181C K101E),cytopathic effect / XTT,RT-Y181C K101E,>222
CCOCn1c(Sc2cc(C)cc(C)c2)c(CC)c(=O)[nH]c1=S,CEM,IIIB,syncytia,Nevirapine resistant (RT Y181C),23.3
CC(=O)c1ccc(C)cc1NC(C(N)=O)c1c(Cl)cccc1Cl,CEM + CEM-SS,UC781-R (RT-Y181C),cytopathic effect / XTT,RT-Y181C,>100
C=CCO/N=C/c1cc(NC(=S)c2ccoc2C)ccc1Cl,CEM + CEM-SS,NL4-3,cytopathic effect / XTT,RT-A98G,57.1
CC(C)=CCOc1cc(NC(=S)c2ccsc2C)ccc1Cl,CEM + CEM-SS,Pyridinone-resistant (RT Y181C K103N),cytopathic effect / XTT,RT-K103N Y181C,>250
C/C=C/CSc1cc(NC(=S)c2ccsc2C)ccc1Cl,CEM + CEM-SS,4XAZT+L100I (RT D67N K70R L100I T215Y K219Q),p24,RT-D67N K70R L100I T215Y K219Q,12
CC(C)c1c(Sc2ccccc2)n(COCc2ccccc2)c(=S)[nH]c1=O,CEM,IIIB,syncytia,RT-Y181I,1250
CC(C)[C@H](NC(=O)OCc1ccccn1)C(=O)N[C@@H](Cc1ccccc1)[C@@H](O)C[C@H](Cc1ccccc1)NC(=O)OCc1cccnc1,MT-4,NL4-3,p24,PR-M46I L63P V82T I84V,3.75
O=C1Nc2ccc(F)c(F)c2[C@@](/C=C/C2CC2)(C(F)(F)F)N1,,,,RT-K103N P225H,100
CC(C)c1c(Sc2ccccc2)n(COCc2ccccc2)c(=O)[nH]c1=O,CEM,IIIB TIBO R82913-resistant (RT K103N),syncytia,RT-K103N,250
O=C1Nc2ccc(F)c(F)c2[C@@](C#CC2CC2)(C(F)(F)F)N1,,,,RT-K103N Y181C,16.7
CC=CCOc1cc(NC(=S)c2ccoc2C)ccc1OC,CEM + CEM-SS,4XAZT/Y181C (RT D67N K70R Y181C T215Y K219Q),cytopathic effect / XTT,RT-D67N K70R Y181C T215Y K219Q,140
Cc1cc(OCCCS(N)(=O)=O)ccc1NC(=O)COc1ccc(Cl)cc1C(=O)c1cc(F)cc(C(F)(F)F)c1,HeLa + HELA CD4+,HXB2,β-galactosidase,RT-K101E,~1
C[C@@H]1CCO[C@H]2Cn3cc(C(=O)NCc4ccc(F)cc4F)c(=O)c(O)c3C(=O)N12,CBMC,NL4-3,RT activity,R263K,1.9
CCOCn1c(Sc2ccccc2)c(CC)c(=O)[nH]c1=O,CEM,IIIB (TIBO 82150) (RT-L100I),syncytia,RT-L100I,5.5
Cc1cc(S(N)(=O)=O)ccc1NC(=O)COc1ccc(Cl)cc1C(=O)c1cccc(C#N)c1,HeLa + HELA CD4+,HXB2,β-galactosidase,RT-V106A,~10
CCCc1cc(=O)oc2c3c(c4c(c12)OC(C)(C)CC4)O[C@H](C)[C@@H](C)C3=O,,,cytopathic effect / XTT,RT-Y188H,>68
Cc1occc1C(=S)Nc1ccc(Cl)c(C(=O)OC(C)C)c1,CEM + CEM-SS,NL4-3,cytopathic effect / XTT,RT-V106A,20
Cc1cc(S(N)(=O)=O)ccc1NC(=O)COc1ccc(Cl)cc1C(=O)c1cc(C#N)cc(C#N)c1,MT-4,Nevirapine-resistant (RT Y181C),cytopathic effect / propidium iodide,RT-Y181C,~1
Cc1occc1C(=S)Nc1ccc(Cl)c(C(=O)OCC2CC2)c1,CEM + CEM-SS,NL4-3,cytopathic effect / XTT,RT-V179D,10
N#Cc1cc(Cl)cc(Oc2c(Br)ccc(CC(=O)Nc3ccc(S(N)(=O)=O)cc3Cl)c2F)c1,MT-4,,,V179F/Y181C,<1
Cc1ccc(C2CC2)c(-c2ccc3c(c2C)CCCO3)c1[C@H](OC(C)(C)C)C(=O)O,MT-4,NL4-3,luminescence,INSTI-resistant (IN-N155H),1
CCc1c(Sc2cc(C)cc(C)c2)n(COCCO)c(=O)[nH]c1=O,CEM,IIIB TIBO R82913-resistant (RT K103N),syncytia,RT-K103N,117
Cc1cc2[nH]cnc2cc1NC(=O)COc1ccc(Cl)cc1C(=O)c1cc(F)cc(C(F)(F)F)c1,HeLa + HELA CD4+,HXB2,β-galactosidase,RT-K103N V108I,~1
Cc1cc(NS(=O)(=O)CC2CCCCC2)c(C)c(C(OC(C)(C)C)C(=O)O)c1-c1ccc2c(c1)CCCO2,MT-4,NL4-3,p24 / luminescence,N222K,1

The last 2 rows once more:

structure	cells	strain	read by	mutations	value
Cc1cc2[nH]cnc2cc1NC(=O)COc1ccc(Cl)cc1C(=O)c1cc(F)cc(C(F)(F)F)c1	HeLa + HELA CD4+	HXB2	β-galactosidase	RT-K103N V108I	~1
Cc1cc(NS(=O)(=O)CC2CCCCC2)c(C)c(C(OC(C)(C)C)C(=O)O)c1-c1ccc2c(c1)CCCO2	MT-4	NL4-3	p24 / luminescence	N222K	1